Laboratory results taken from paper PMC8881069, “Thio- and selenosemicarbazones as antiprotozoal agents against Trypanosoma cruzi and Trichomonas vaginalis” (Journal of Enzyme Inhibition and Medicinal Chemistry, 2022).

Tested on: Trypanosoma cruzi Y (DTU TcII) epimastigotes
Experiment: Y strain epimastigote susceptibility assay (resazurin)
Assay type: cell-based
Settings: SI = CC50 J774/IC50 Y epimastigotes

SMILES	SI Y epi
O=C(Cn1ccnc1[N+](=O)[O-])NCc1ccccc1 [Benznidazole, benznidazole, reference compound]	>11.26
COc1ccc(NC(=S)NN)cc1 [Compound 23]	>4.27
NNC(=S)Nc1ccc(F)cc1 [Compound 24]	>2.63
NNC(=S)Nc1cccc2ccccc12 [Compound 31]	>7.61
COc1ccc(/C=N/NC(=S)Nc2ccccc2)cc1 [Compound 37]	>3.01
COc1ccc(/C=N/NC(=S)Nc2ccc(OC)cc2)cc1 [Compound 43]	>4.61

Tested on: Trichomonas vaginalis
Experiment: Trichomonacidal in vitro assay (resazurin)
Assay type: cell-based
Settings: SI = CC50 Vero cells/IC50 T. vaginalis

SMILES	SI (T. vaginalis)
NNC(=S)Nc1ccc(Cl)cc1 [Compound 25]	>6.10
NNC(=S)Nc1cccc([N+](=O)[O-])c1 [Compound 29]	> 15.7 and >15.67
NNC(=S)Nc1cccc2ccccc12 [Compound 31]	>9.93
COc1ccc(/C=N/NC(=S)Nc2ccc(Cl)cc2)cc1 [Compound 46]	>9.30
Oc1ccc(/C=N/NC(=S)Nc2ccc(Br)cc2)cc1O [Compound 49]	> 15.7 and >18.30
Oc1ccc(/C=N/NC(=S)Nc2ccc(I)cc2)cc1 [Compound 50]	>7.10
COc1ccc(/C=N/NC(=S)Nc2ccc(I)cc2)cc1 [Compound 51]	> 15.7 and >20.20
Oc1ccc(/C=N/NC(=S)Nc2ccc(I)cc2)cc1O [Compound 52]	>12.05
COc1ccc(/C=N/NC(=S)Nc2ccccc2[N+](=O)[O-])cc1 [Compound 54]	>8.77
O=[N+]([O-])c1cccc(NC(=S)N/N=C/c2ccc(O)cc2)c1 [Compound 56]	7.00
O=[N+]([O-])c1ccc(NC(=S)N/N=C/c2ccc(O)cc2)cc1 [Compound 59]	7.07
Oc1ccc(/C=N/NC(=S)Nc2cccc3ccccc23)cc1 [Compound 63]	> 15.7 and 18.45
COc1ccc(/C=N/NC(=S)Nc2cccc3ccccc23)cc1 [Compound 64]	>9.85
Cc1ncc([N+](=O)[O-])n1CCO [Metronidazole, metronidazole, reference compound]	>111

Where “and” joins values, the source holds several entries; their conditions need not be identical. Equal entries are not always repeated.
